{"source": "patent EP4314010B1", "about": "“MODIFIED PEPTIDOMIMETICS AND METHODS OF USE” (dated 2026)", "key": {"[1]": {"experiment": "E. coli LPS acute respiratory distress syndrome (ARDS) model", "conditions": "3 mg/kg LPS intratracheally; 0.5 mg/kg intranasally 1 or 6 h later", "protocol": "ELD607 reduces inflammation in an acute respiratory distress syndrome (ARDS) model. Mice were intratracheally to 3 mg/kg E. coli lipopolysaccharide (LPS). 0.5 mg/kg ELD607 was instilled intranasally 1 or 6 h later. As a control, 3 mg/kg dexamethasone was given intranasally."}, "[2]": {"test_system": "mouse hepatitis virus (MHV-A59; a murine coronavirus)", "experiment": "Murine coronavirus infection model", "protocol": "ELD607 normalized leukocyte composition and viral loads in the airways after murine coronavirus infection. Coronaviruses are emerging pathogens with severe outcomes in the human population. Mice were infected with 10^6 PFU mouse hepatitis virus (MHV-A59; a murine coronavirus) intranasally. The mice were then dosed with 1.0 mg/kg ELD607 or vehicle intranasally 4 days p.i. and then 2 days after dosing with ELD607 (6 days p.i.), mice were sacrificed to collect BAL and lung homogenates. […] Thus, ELD607 beneficially reduces inflammation in both acute and chronic models. Without wishing to be bound to theory, ELD607 may moderate local inflammation in the lung lumen to reduce neutrophilia and allow macrophages to more efficiently clear bacteria without neutrophil-elastase-mediated lung injury."}, "[3]": {"test_system": "P. aeruginosa", "experiment": "Murine model of P. aeruginosa bacterial pneumonia", "protocol": "Further in vivo experiments were performed. Mice were treated intratracheally with 10^7 colony forming units (CFU) of P. aeruginosa 1 hour prior to intranasal treatment with 0.51 mg/kg peptide, in a murine model of bacterial pneumonia. Bronchoalveolar lavage (BAL) and organ collection was performed 24 hours following treatment with peptide (FIG. 15A). […] Moreover, 24 h after infection, about 10^9 CFUs could be detected in murine whole lung homogenate. However, ELD607 caused an ~5 log10 reduction in lung bacteria (FIG. 15D).\nBronchoalveolar lavage (BAL) was collected from mice treated intratracheally with 10^7 colony forming units (CFU) of P. aeruginosa 1 hour prior to intranasal treatment with 0.51 mg/kg peptide, in a murine model of bacterial pneumonia, or vehicle-treated mice. […] Mice were exposed to vehicle or P. aeruginosa ± ELD607 and BAL was obtained and stained with an anti-Orai1 antibody, fluorescent 2° and DAPI. […] FIG. 16G panels B and C show plots showing fluorescent intensities of Orai1 in macrophages and neutrophils, respectively.\nTo examine Orai1 levels, BAL was then obtained from P. aeruginosa-infected mice, immediately cytospun, fixed in PFA and stained with an antibody against Orai1."}, "[4]": {"test_system": "P. aeruginosa", "experiment": "P. aeruginosa infection in WT mice, comparison with other agents", "conditions": "WT mice infected with P. aeruginosa", "description": "We then infected WT mice with P. aeruginosa and treated with ELD607, the Orai1 small molecule antagonist YM-58453, dexamethasone or scrambled ELD607."}, "[5]": {"test_system": "SARS-CoV-2 S1 pseudovirus", "experiment": "SARS-CoV-2 S1 pseudovirus infection of ACE2-expressing HEK293T cells (DsRed)", "conditions": "ACE2-overexpressing HEK293T cells", "protocol": "During infection, increased SOCE and Orai1 activity leads to greater phosphorylation of Ca^2+-sensitive kinases (e.g., calcineurin) and activation of transcription factors (e.g., NFAT) leading to a pro-inflammatory response. […] The results were normalized to the baseline. Thapsigargin (Tg) at 1 µM was used as control. The inhibition of Ca^2+ release after scaffold peptide (ELD100; reference) addition is shown for comparison. […] The results were normalized to the baseline. Thapsigargin (Tg) at 1 µM was used as control. The inhibition of Ca^2+ release after ELD100 (reference) addition is shown for comparison. […] The results were normalized to the baseline. Thapsigargin (Tg) at 1 µM was used as control. The inhibition of Ca^2+ release after ELD100 (reference) addition is shown for comparison. […] The results were normalized to the baseline. Thapsigargin (Tg) at 1 µM was used as control. The inhibition of Ca^2+ release after ELD100 (reference) addition is shown for comparison. […] 1 h later, thapsigargin was added and the change in Fluo-4 fluorescence was measured. […] HEK293T cells were transfected with anti-Orai1 shRNA for 48 h and the change in Fluo4 fluorescence was measured. […] FIG. 16G panels B and C show plots showing fluorescence intensities of Orai1 in macrophages and neutrophils, respectively. *** p<0.001 different as indicated. […]"}, "[6]": {"test_system": "P. aeruginosa POA1", "experiment": "P. aeruginosa infection in Orai1+/- mice and WT littermate controls", "conditions": "infected and treated", "protocol": "ELD607, but not global Orail inhibition or steroids beneficially reduce pulmonary inflammation after P. aeruginosa infection. Orai1^-/- mice have low survival rates, so we used Orai1^+/- mice that have ~70% reduced Ca^2+ influx (Gwack et al. 2008 Mol cell Biol. 28(17):5209-5222). Orai1^+/- mice infected with 10^7 CFU/mouse P. aeruginosa POA1 and treated intranasally 1 h later with 0.5 mg/kg ELD607, were not able to normalize leukocyte levels (FIG. 31, panels A-C). In contrast, WT littermate controls infected with P. aeruginosa and treated with ELD607 had reduced normalized leukocytes similar to naïve mice after ELD607 exposure (FIG. 31, panels B and C). Additionally Orai1^+/- mice infected and then treated with ELD607 were not able to clear bacterial burden in the lungs (FIG. 31, panel D)."}, "[7]": {"experiment": "E. coli LPS sepsis model", "conditions": "LPS intraperitoneally; 0.5 mg/kg intravenously 1 h later", "protocol": "We injected mice intraperitoneally with E. coli LPS, followed by 0.5 mg/kg ELD607 injected intravenously 1 h later. […] Table 1. Sequences of ELD100 peptide (reference) undergoing Alanine scan. The alternative names denote the amino acids changed and their position."}, "[8]": {"conditions": "10^6 PFU intranasally, 1.0 mg/kg intranasally 4 days p.i., 6 days p.i."}, "[9]": {"conditions": "10^7 CFU intratracheally, 0.51 mg/kg intranasal 1 hour later, 24 hours"}}, "note": "Structures were worked out from names or drawings and are uncertain.", "data": [{"smiles": "CC[C@H](C)[C@H](NC(=O)[C@H](CC(C)C)NC(=O)[C@H](CCSC)NC(=O)[C@H](CC(N)=O)NC(=O)[C@@H](NC(=O)[C@@H](NC(=O)[C@H](CC(=O)O)NC(=O)[C@H](Cc1c[nH]cn1)NC(=O)[C@@H](N)C(C)C)[C@@H](C)CC)C(C)C)C(=O)N[C@@H](CCCNC(=N)N)C(=O)NCC(=O)O", "values": [{"measurement": "BAL neutrophilia", "setting": "[1]", "result": "attenuated BAL neutrophilia"}, {"measurement": "lung damage caused by LPS", "setting": "[1]", "result": "significantly reduced lung damage"}, {"measurement": "weight loss", "setting": "[1]", "result": "reduced weight loss"}, {"measurement": "lung lymphocyte levels (B cells and T cells)", "setting": "[2]; [8]", "result": "significantly reduced lung lymphocyte levels"}, {"measurement": "lung monocyte and macrophage levels", "setting": "[2]; [8]", "result": "normalized lung monocyte and macrophage levels"}, {"measurement": "viral loads in the lungs and BAL", "setting": "[2]; after one dose of 1.0 mg/kg", "result": "significantly reduced"}, {"measurement": "BAL monocytes", "setting": "[3]; [9]", "result": "significantly retained monocyte levels"}, {"measurement": "BAL neutrophils", "setting": "[3]; [9]", "result": "reduced neutrophil levels"}, {"measurement": "bacterial counts in the spleen", "setting": "[3]; 24 hours post treatment", "result": "reduced bacterial counts in the spleen"}, {"measurement": "Total protein", "setting": "[3]; BAL", "result": "significantly reduced"}, {"measurement": "lactate dehydrogenase (LDH) levels", "setting": "[3]; BAL", "result": "significantly reduced"}, {"measurement": "neutrophil elastase levels", "setting": "[3]; BAL", "result": "significantly reduced"}, {"measurement": "Macrophage Inflammatory Protein 2 (MIP-2), also known as CXCL2", "setting": "[3]; BAL cytokine levels", "result": "reduced"}, {"measurement": "interleukin-17 (IL-17)", "setting": "[3]; BAL cytokine levels", "result": "reduced"}, {"measurement": "IL-6", "setting": "[3]; cytokine levels", "result": "reduced"}, {"measurement": "interleukin-1β (IL-1β)", "setting": "[3]; cytokine levels", "result": "reduced"}, {"measurement": "tumor necrosis factor-α (TNF-α)", "setting": "[3]; cytokine levels", "result": "reduced"}, {"measurement": "lung histology", "setting": "[3]; infected animals", "result": "normalization of alveoli"}, {"measurement": "total weight loss", "setting": "[3]; intranasal 10^7 CFU/ml P. aeruginosa", "result": "prevented the total weight loss"}, {"measurement": "BAL neutrophils, delayed treatment", "setting": "[3]; peptide added 24 hours after infection", "result": "reduced"}, {"measurement": "bacterial infections (lung CFU)", "setting": "[4]", "result": "significantly reduced"}, {"measurement": "neutrophilia", "setting": "[4]", "result": "significantly reduced neutrophilia"}, {"measurement": "pseudovirus infection (DsRed fluorescence)", "setting": "[5]", "result": "significantly reduced infection"}, {"measurement": "leukocyte levels in WT littermate controls", "setting": "[6]", "result": "had reduced normalized leukocytes similar to naïve mice"}, {"measurement": "blood macrophages", "setting": "[7]", "result": "significantly increased blood macrophages"}, {"measurement": "blood neutrophilia", "setting": "[7]", "result": "significantly reduced blood neutrophilia"}, {"measurement": "weight loss", "setting": "[7]", "result": "significant prevented weight loss"}]}]}
